Assay results published in patent publication US20160177369.

Target: his6-tagged recombinant CFP-SNAP-25-YFP chimera protein (CFP-SNAP-25 (141-206)-YFP), purified from E. coli (UniProt P60881)

botulinum neurotoxin A (BoNT/A) holotoxin
detection sensitivity, 16 hours against 4 hours incubation: incubation for 16 hours slightly increased the detection sensitivity | rate of FRET ratio decrease at various toxin concentrations, 300 nM sensor: higher toxin concentration resulted in faster decrease of the FRET ratio
